Measured values from several laboratories, pooled; numbers as filed in NIAID ChemDB.

All rows: tests in culture; organism: Mycobacterium tuberculosis

Blank or dashed fields: not listed here. MIC bound comes from a single tested concentration. ECn: concentration that inhibits the pathogen or its effect by n%. A number after MIC or MFC names an inhibition level or a share of isolates. Percent inhibition refers to the dose given; in toxicity tests it is the harm to the cells. a–b is a range or a potency band. Rows are shuffled and stem from different studies.

compound | strain or isolate | mutations | dose | cell line | method | measure | result
CCN1c2ccccc2Sc2ccccc21 | H37Rv | - | - | - | - | MIC | >100 µg/mL
COc1cccc2ccc(N3CCC(c4nc(-c5ccc(Cl)nc5)no4)CC3)nc12 | H37Rv | - | - | - | resazurin | MIC | 15.6–31.5 µM
Cn1c(=O)[nH]c2nncnc2c1=O | H37Rv | - | - | - | BACTEC | MIC bound | >12.8 µg/mL
COC(=O)C1=C(C)NC(Nc2ccc(Br)cc2)=NC1c1ccc(Cl)cc1 | H37Rv | - | - | - | agar | MIC | 16 µg/mL
Cc1ccc(N2C(=O)CCSC2=S)cc1Cl | H37Rv | - | 12.5 µg/mL | - | BACTEC | inhibition | 100%
C=CCN=C(N=Nc1c(O)[nH]c2ccccc12)SCC(=O)c1ccc([N+](=O)[O-])cc1 | H37Rv | - | - | - | - | EC50 | >12 µg/mL
Cc1cc2c(=O)c3ccccc3[nH]c2c(C(N)=O)c1C | H37Rv | - | 12.5 µg/mL | - | BACTEC | inhibition | -2%
O=S(=O)(NCCO)c1ccc(Br)cc1 | H37Rv | - | - | - | - | MIC | 100 µg/mL
O=C(CCC(F)(F)F)N1CCC(c2ccnc(F)c2)CC1 | H37Rv | - | - | THP-1 | fluorescence | EC50 | <0.05 µM
O=C(Nc1ccccc1)c1cc(C2C3CC4CC(C3)CC2C4)c2ccccc2n1 | H37Ra | - | 6.25 µg/mL | - | BACTEC | inhibition | 99%
Cc1ccc(Sc2ccccc2N)cc1 | H37Rv | - | - | - | - | MIC | 25 µg/mL
CO[C@H]1/C=C/O[C@@]2(C)Oc3c(C)c(O)c4c(O)c5nc(ncc5c(O)c4c3C2=O)/C(C)=C\C=C\[C@H](C)[C@H](O)[C@@H](C)[C@@H](O)[C@@H](C)[C@H](OC(C)=O)[C@@H]1C | H37Rv | - | - | - | - | MIC | <0.03 µg/mL
CCN(CC)CCNc1cccc2sc3ccccc3c(=O)c12 | H37Rv | - | 12.5 µg/mL | - | BACTEC | inhibition | 99%
Cl.Nc1nccc(Nc2c(O)cccc2O)n1 | H37Rv | - | - | - | - | MIC | >100 µg/mL
Clc1cccc2ccc(N3CCC(c4nc(-c5cccnc5)no4)CC3)nc12 | H37Rv | - | - | - | resazurin | MIC | 15.6–31.5 µM
NNC(=O)c1cc(C2CCCCC2)c2c(C3CCCCC3)cccc2n1 | H37Ra | - | - | - | BACTEC | MIC | 6.25 µg/mL
C=CCn1c(-c2ccc(OC)cc2)cs/c1=N\N=C1/C(=O)Nc2ccccc21 | H37Rv | - | - | - | - | MIC | 12.5 µg/mL
CCCCCCCCCCCCSC(CC(=O)c1ccccc1)c1ccccc1 | H37Rv | - | - | - | - | MIC | >100 µg/mL
O/C(=C\c1nc2ccccc2nc1/C=C(\O)c1ccc(Cl)cc1)c1ccc(Cl)cc1 | - | - | - | - | - | EC50 | >6.25 µg/mL
O=C(NCc1ccccc1)c1cc(C2C3CC4CC(C3)CC2C4)c2ccccc2n1 | H37Ra | - | 6.25 µg/mL | - | BACTEC | inhibition | 99%
c1cncc(-c2noc(C3CCN(c4ccc5cc(-c6ccncc6)ccc5n4)CC3)n2)c1 | H37Rv | - | - | - | resazurin | MIC | <7.8 µM
CC1=NN(c2ccccc2)C(=O)C1N=Nc1ccc(S(N)(=O)=O)cc1 | H37Rv | - | - | - | BACTEC | MIC bound | >12.5 µg/mL
COc1cccc2ccc(N3CCC(c4nc(-c5ccc(N6CCNCC6)nc5)no4)CC3)nc12 | H37Rv | - | - | - | resazurin | MIC | 15.6–31.5 µM
Cc1c2cnccc2c(C)c2c1c1ccccc1n2CCCCCCNCc1ccccc1 | H37Rv | - | - | VERO | resazurin | MIC | 0.39 µg/mL
CN[C@@H]1[C@H](O[C@H]2[C@H](O[C@H]3[C@H](O)[C@@H](O)[C@H](N=C(N)N)[C@@H](O)[C@@H]3N=C(N)N)O[C@@H](C)[C@]2(O)C=O)O[C@@H](CO)[C@H](O)[C@H]1O | H37Rv | - | - | - | resazurin / fluorescence | MIC90 | 0.12 µg/mL
Cn1cnc2c(NC(=O)Nc3ccc(Cl)cc3)nc(Cl)cc21 | H37Rv | - | - | - | visual reading | MIC99 | 25 µM
O=C(CCCC(F)(F)F)N1CCC(c2cncc(Cl)c2)CC1 | H37Rv | - | - | THP-1 | fluorescence | EC50 | 0.05–0.25 µM
O=C1NC(Nc2ccccc2)=N/C1=C\c1ccc(Cl)cc1Cl | H37Rv | - | 12.5 µg/mL | - | - | inhibition | 47%
CN=C(N)N/N=C(\C)c1ccc2sc3ccc(/C(C)=N/NC(N)=NC)cc3c2c1.Cl.Cl | H37Rv | - | - | - | BACTEC | MIC bound | >12.5 µg/mL
CCCCCCCC/C=C\CCCCCCCCCCCC(=O)O | H37Rv | - | - | - | - | MIC | >100 µg/mL
C[C@H](N)C(=O)N[C@@H]1[C@H]2C(=C(O)C[C@@H](O)[C@@H]2O)C(=O)O[C@]1(C)C(Cl)Cl | H37Rv | - | - | - | BACTEC | MIC | 1.6 µg/mL
NNC(=O)c1cc(C2CCCC2)nc2ccccc12 | H37Ra | - | - | - | BACTEC | MIC | >6.25 µg/mL
CN=C(N=Nc1c(O)[nH]c2ccccc12)SCC(=O)c1ccc(Br)cc1 | H37Rv | - | - | - | - | EC50 | <12 µg/mL
CN(c1ccccc1)c1cc2nc3ccccc3nc2cc1O | H37Rv | - | 12.5 µg/mL | - | BACTEC | inhibition | 96%
COc1cccc2ccc(N3CCC(c4nc(-c5ccc(NCCO)nc5)no4)CC3)nc12 | H37Rv | - | - | - | resazurin | MIC | 15.6–31.5 µM
CO[C@H]1/C=C/O[C@@]2(C)Oc3c(C)c(O)c4c(O)c(c(/C=N/N5C(C)CN(Cc6ccccc6)CC5C)c(O)c4c3C2=O)NC(=O)/C(C)=C\C=C\[C@H](C)[C@H](O)[C@@H](C)[C@@H](O)[C@@H](C)[C@H](OC(C)=O)[C@@H]1C | XDR-TB | - | - | - | agar | MIC | >64 µg/mL
Cc1ccccc1C(=O)Nc1nc(Cl)cc2c1ncn2C | H37Rv | - | - | - | visual reading | MIC99 | >25 µM
NNC(=O)Cc1cc(C2CCCC2)nc2ccccc12 | H37Ra | - | 6.25 µg/mL | - | BACTEC | inhibition | 1%
c1ccc(-c2ccc(-c3ccccc3)c(-c3ccccc3)n2)cc1 | H37Rv | - | - | - | - | MIC | 100 µg/mL
CCOC(=O)NNP(=O)(NNC(=O)OCC)c1ccccc1 | H37Rv | - | - | - | BACTEC | MIC bound | >6.25 µg/mL
C[C@H]1COc2c(N3CCN(C)CC3)c(F)cc3c(=O)c(C(=O)O)cn1c23 | XDR-TB | - | - | - | agar | MIC | 16 µg/mL
Brc1c2ccccc2c(Br)c2ccccc12 | H37Rv | - | - | - | - | MIC | >100 µg/mL
O/C(=C\c1nc2ccccc2nc1/C=C(\O)c1ccccc1)c1ccccc1 | - | - | - | - | - | MIC | >6.25 µg/mL
CCOC(=O)/C(C#N)=C/c1c(-c2ccccc2)nn2ccccc12 | H37Rv | - | 6.25 µg/mL | - | resazurin | inhibition | 30%
NNC(=O)Cc1cc(C2CCCCC2)nc2c(C3CCCCC3)cccc12 | H37Ra | - | 6.25 µg/mL | - | BACTEC | inhibition | 56%
COC(=O)C1=C(C)NC(Nc2cccc(SC(F)(F)F)c2)=NC1c1ccc(Cl)cc1 | H37Rv | - | - | - | agar | MIC | 4 µg/mL
NC(=O)c1ccc(N)cc1O | H37Rv | - | - | - | - | MIC | 100 µg/mL
Cn1cnc2c(NC(=O)c3ccc(F)cc3)nc(Cl)cc21 | H37Rv | - | - | - | visual reading | MIC99 | 6.25 µM
CC1S/C(=N/N=C2\C(=O)Nc3ccccc32)N(C)C1=O | H37Rv | - | - | - | - | MIC | >12.5 µg/mL
Cc1cccc(C(=O)Nc2nc(Cl)cc3c2ncn3C)c1 | H37Rv | - | - | - | visual reading | MIC99 | >25 µM
COc1ccc(C2CCCCC2)cc1 | H37Rv | - | - | - | - | MIC | >100 µg/mL
N/C(=N\NS(=O)(=O)c1ccccc1)N[N+](=O)[O-] | H37Rv | - | 6.25 µg/mL | - | resazurin | inhibition | 15%
NC[C@H]1O[C@H](O[C@H]2[C@H](O)[C@@H](O[C@H]3O[C@H](CO)[C@@H](O)[C@H](N)[C@H]3O)[C@H](N)C[C@@H]2N)[C@H](O)[C@@H](O)[C@@H]1O | H37Rv | Kanamycin-resistant | - | - | resazurin / fluorescence | MIC90 | >2 µg/mL
COc1ccc2c(c1)[n+]([O-])c(/C(C)=N/NC(=O)c1ccccc1O)c(C)[n+]2[O-] | PAS-R | - | - | - | - | MIC | 6.3 µg/mL
Cn1cnc2c(NC(=O)Nc3ccc(F)cc3)nc(Cl)cc21 | H37Rv | - | - | - | visual reading | MIC99 | 6.5 µM
O=C(O)c1cncc2ccccc12 | H37Rv | - | - | - | - | MIC | >100 µg/mL
Cc1ccc(NC(=O)Nc2nc(Cl)cc3c2ncn3C)cc1 | H37Rv | - | - | - | visual reading | MIC99 | 12.5 µM
O=C1NC(=Nc2ccccc2Cl)N/C1=C\c1ccccc1Cl | H37Rv | - | - | - | - | MIC | >12.5 µg/mL
NNC(=O)Cc1cccc2ccc(Cl)cc12 | H37Rv | - | - | - | BACTEC | MIC bound | >12.5 µg/mL
COc1cccc2ccc(N3CCC(c4nc(-c5ccc(C(F)(F)F)cc5)no4)CC3)nc12 | H37Rv | - | - | - | resazurin | MIC | 50–100 µM
Nc1cc(O)c(C(=O)O)cc1F | H37Rv | Rifampicin-resistant | - | - | resazurin | MIC90 | 6.25 µg/mL
Nc1cc2oc3ccccc3c2c2cccnc12 | H37Rv | - | - | - | BACTEC | MIC bound | >12.5 µg/mL
CCCc1c2c([nH]c(=O)c1C)C(=O)c1[nH]c(=O)c(C)c(CCC)c1C2=O | H37Rv | - | - | - | resazurin / fluorescence | MIC90 | 0.1 µg/mL
COc1ccc(NC(=O)c2cc(C3C4CC5CC(C4)CC3C5)c3ccccc3n2)cc1Cl | H37Ra | - | 6.25 µg/mL | - | BACTEC | inhibition | 35%
Cl.O=C1CCC2N1CCC1CCCCN12 | H37Rv | - | - | - | BACTEC | MIC bound | >12.5 µg/mL
Cc1cccc2c1C(=O)C(=O)c1cc(C(C)C)ccc1-2 | H37Rv | - | - | - | - | MIC | 50 µg/mL
O=C(CCC(F)(F)F)N1CCC(c2cncc(Cl)n2)CC1 | H37Rv | - | - | THP-1 | fluorescence | EC50 | >0.05 µM
CCNC(=S)N=Nc1c(O)[nH]c2ccc(Br)cc12 | H37Rv | - | - | - | - | MIC | >12.5 µg/mL
N#Cc1ccc2c([N+](=O)[O-])cccc2c1 | H37Rv | - | - | - | - | MIC | >100 µg/mL
CC(C)(C)C/C(O)=C/c1nc2ccccc2nc1/C=C(\O)CC(C)(C)C | - | - | - | - | - | EC50 | >6.25 µg/mL
C[C@@]12C[C@@]3(O)O[C@@H](O1)[C@]1(COC(=O)c4ccccc4)[C@H]3C[C@@]12O[C@@H]1O[C@H](CO)[C@@H](O)[C@H](O)[C@H]1O | H37Rv | - | - | - | BACTEC | MIC bound | >12.5 µg/mL
Cc1cc(O)c(C(C)C)c(Cl)c1 | H37Rv | - | - | - | - | MIC | >100 µg/mL
CCOC(=O)Nc1nc(Cl)c(Cl)nc1Cl | H37Rv | - | 6.25 µg/mL | - | resazurin | inhibition | 30%
CC(=O)Oc1cc(-c2c(C)cc(C)cc2C)c(OC(C)=O)cc1-c1c(C)cc(C)cc1C | H37Rv | - | - | - | - | MIC | >100 µg/mL
O=C(CNC(=O)n1ccnc1)N/N=C/c1ccccc1O | H37Rv | - | - | - | BACTEC | MIC bound | >12.5 µg/mL
Cc1cc(O)ccc1S(=O)(=O)[O-].[K+] | H37Rv | - | - | - | - | MIC | >100 µg/mL
COC(=O)C1=C(C)NC(=NCc2ccc(OC)cc2OC)NC1c1ccc(Cl)cc1 | H37Rv | - | - | - | agar | MIC | 16 µg/mL
O=C1NC(=NCc2ccc(Cl)cc2)N/C1=C\c1ccccc1Cl | H37Rv | - | 12.5 µg/mL | - | - | inhibition | 45%
c1ccc2c(-c3cccc4c3oc3ccccc34)nccc2c1 | H37Rv | - | - | - | - | MIC | 50 µg/mL
O=C(CCC(F)(F)F)N1CCC(F)(c2cncc(Cl)c2)CC1 | H37Rv | - | - | THP-1 | fluorescence | EC50 | <0.05 µM
O=C(Nc1ccn[nH]1)c1ccc([N+](=O)[O-])o1 | H37Ra | - | - | - | - | MIC | 6.25 µg/mL
COc1ccccc1NC(=O)c1cc2ccccc2cc1O | H37Rv | - | - | - | - | MIC | >100 µg/mL
Cn1cnc2c(NS(=O)(=O)c3cccc(F)c3)nc(Cl)cc21 | H37Rv | - | - | - | visual reading | MIC99 | 6.5 µM
Cl.Cl.O=C(CNC(=O)Nc1ccc(NC(=O)NCC(=O)Nc2ccc(C3=NCCN3)cc2)cc1)Nc1ccc(C2=NCCN2)cc1 | H37Rv | - | - | - | BACTEC | MIC bound | >12.5 µg/mL
COc1cccc2ccc(N3CCC(c4nc(-c5ccc(O)cc5)no4)CC3)nc12 | H37Rv | - | - | - | resazurin | MIC | 7.8–15.6 µM
O=C1NC(Nc2cccc(Cl)c2)=N/C1=C\c1c(Cl)cccc1Cl | H37Rv | - | 12.5 µg/mL | - | - | inhibition | 0%
O=C(O)COc1ccccc1 | H37Rv | - | - | - | - | MIC | >100 µg/mL
O=C(CCC(F)(F)F)N1CCC(c2cnc(F)c(F)c2)CC1 | H37Rv | - | - | THP-1 | fluorescence | EC50 | <0.05 µM
Cc1cc(C2CCCC2)nc2c(C3CCCC3)cccc12 | H37Ra | - | - | - | BACTEC | MIC | 6.25 µg/mL